Record: PubChem BioAssay AID1259414 (Drosophila RNAi Screening Center, 2018)
Purpose: 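Host factors increasing or decreasing Wolbachia levels in cultured fly cells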 (primary screen). Cell system: Drosophila JW18 cells infected with Wolbachia. Knock-down reagent: long dsRNA against Drosophila genes, 0.25 µg dsRNA per well of a 384-well plate. Time to read-out: 5 days. Treatment: cells persistently infected with Wolbachia before knock-down; no added drug. Measured: 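Automated imaging of bacterial rRNA staining divided by host cell count, reported as plate-normalised robust z-score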. Scale: Wolbachia per cell robust z: higher = more Wolbachia per host cell than the plate typical. Rule for the call: 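Hit when robust z is 1.5 or more, or -1.5 or less, in at least two of three replicates; excludes dsRNAs with several or no targets, genes not expressed in JW18 and well A1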.
In all, the deposit lists about 24,000 reagents; below is a random part of those with a known target gene and a result. Over the whole deposit, about 1,210 (5%) got an active call. 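Inactive calls also include excluded dsRNAs with several or no targets, genes unexpressed in JW18, and well A1, regardless of score.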

predicted target | DRSC id | Wolbachia per cell robust z, rep 1 | Wolbachia per cell robust z, rep 2 | Wolbachia per cell robust z, rep 3 | Outcome
lectin-30A | DRSC02560 | -4.25 | -0.575 | -0.523 | inactive
CG9899 | DRSC04597 | -1.8 | 0.241 | -0.249 | inactive
Cbs | DRSC20553 | 1.12 | -0.475 | 0.932 | inactive
BomS4 | DRSC22509 | 0.907 | -0.254 | -0.226 | inactive
Aatf | DRSC02131 | -10.4 | -1.7 | 0.557 | active
Aatf | DRSC29405 | -1.62 | -2.36 | -1.54 | active
Mtpbeta | DRSC04663 | -0.0851 | -1.39 | -5.13 | inactive
CG11594 | DRSC08207 | 0.159 | -0.121 | -0.588 | inactive
Ets21C | DRSC00751 | 1.04 | -0.00352 | -2.22 | inactive
U2A | DRSC06445 | 1.69 | 0.173 | -1.12 | inactive
U2A | DRSC28070 | 0.133 | 2.33 | 1.88 | active
Shc | DRSC11284 | -1.1 | 0.218 | 0.247 | inactive
Crg-1 | DRSC22882 | 0.458 | -0.208 | 0.275 | inactive
Crg-1 | DRSC29136 | -1.51 | 0.223 | -0.514 | inactive
CCY | DRSC38633 | -0.0969 | 0.476 | 0.521 | inactive
CCY | DRSC38773 | 2.12 | 0.302 | 0.0805 | inactive
CCY | DRSC41432 | -2.65 | -1.85 | -0.748 | inactive
Best3 | DRSC09880 | 0.791 | -1.86 | -2.6 | active
htt | DRSC16970 | -0.417 | -1.09 | 0.0646 | inactive
vex | DRSC19481 | 0.783 | 0.715 | 0.579 | inactive
vex | DRSC19651 | 0.531 | 0.686 | -0.355 | inactive
vex | DRSC21843 | 1.02 | 0.832 | 1.11 | inactive
vex | DRSC25475 | 1.22 | -0.158 | 0.126 | inactive
CG16974 | DRSC02551 | 0.525 | -0.779 | -1 | inactive
CG16974 | DRSC28759 | -0.131 | -2.67 | -1.25 | inactive
Pif1 | DRSC00582 | -3.67 | -0.506 | 0.125 | inactive
CG32369 | DRSC10042 | 0.141 | -0.267 | -0.284 | inactive
CG32369 | DRSC10834 | -0.165 | 0.454 | -0.464 | inactive
CG32369 | DRSC23995 | -0.277 | 0.429 | 2.43 | inactive
Dhc16F | DRSC20242 | 0.633 | 0.616 | 0.129 | inactive
rib | DRSC07021 | -0.192 | -0.178 | -1.15 | inactive
CG14598 | DRSC12541 | 0.196 | -0.622 | 0.587 | inactive
CG14598 | DRSC30074 | -0.0276 | -0.709 | -0.15 | inactive
Msh6 | DRSC10759 | -2.77 | 0.373 | 0.487 | inactive
CG9386 | DRSC16485 | 0.534 | -7.28 | -0.0242 | inactive
SkpB | DRSC07683 | -0.168 | 0.0761 | 0.362 | inactive
SkpB | DRSC25160 | 0.768 | -0.454 | 0.498 | inactive

No new results follow: entries from further up.
predicted target | DRSC id | Wolbachia per cell robust z, rep 1 | Wolbachia per cell robust z, rep 2 | Wolbachia per cell robust z, rep 3 | Outcome
Aatf | DRSC02131 | -10.4 | -1.7 | 0.557 | active
Aatf | DRSC29405 | -1.62 | -2.36 | -1.54 | active
Mtpbeta | DRSC04663 | -0.0851 | -1.39 | -5.13 | inactive
CG11594 | DRSC08207 | 0.159 | -0.121 | -0.588 | inactive
Ets21C | DRSC00751 | 1.04 | -0.00352 | -2.22 | inactive
U2A | DRSC06445 | 1.69 | 0.173 | -1.12 | inactive
U2A | DRSC28070 | 0.133 | 2.33 | 1.88 | active
Shc | DRSC11284 | -1.1 | 0.218 | 0.247 | inactive
Crg-1 | DRSC22882 | 0.458 | -0.208 | 0.275 | inactive
Crg-1 | DRSC29136 | -1.51 | 0.223 | -0.514 | inactive
CCY | DRSC38633 | -0.0969 | 0.476 | 0.521 | inactive

Next reagents follow.
predicted target | DRSC id | Wolbachia per cell robust z, rep 1 | Wolbachia per cell robust z, rep 2 | Wolbachia per cell robust z, rep 3 | Outcome
CG13558 | DRSC04196 | -0.749 | 0.473 | -5.96 | inactive
CG13558 | DRSC27617 | 0.318 | -0.483 | 0.122 | inactive
CG17784 | DRSC15268 | -4.39 | 0.66 | 0.277 | inactive
CG32591 | DRSC19063 | -0.813 | -1.96 | -1.14 | inactive
Wnt4 | DRSC00976 | -1.73 | -1.23 | -1.56 | active
Wnt4 | DRSC03477 | 0.257 | -1.04 | 0.198 | inactive
Gr59b | DRSC04179 | 0.689 | 0.33 | 0.792 | inactive
CG14265 | DRSC18591 | -1.43 | -0.192 | -1.19 | inactive
CG14265 | DRSC29212 | 0.458 | 0.774 | 0.674 | inactive
CR42653 | DRSC40594 | 0.503 | -0.799 | 1.09 | inactive
RPA3 | DRSC19658 | -5.62 | -0.106 | 0.324 | inactive
CG33293 | DRSC38666 | 0.702 | -1.17 | -0.595 | inactive
CG34334 | DRSC38787 | 0.518 | -0.013 | 0.00167 | inactive
CG4630 | DRSC06874 | -0.205 | -1.39 | -3.98 | inactive
CG4630 | DRSC26971 | 0.325 | 0.374 | -0.587 | inactive
Tmem214 | DRSC02924 | -0.134 | -3.42 | 1.15 | inactive
Tmem214 | DRSC02925 | -1.08 | 0.13 | 0.904 | inactive
Tmem214 | DRSC28172 | -0.691 | -0.119 | -0.615 | inactive
Scp1 | DRSC20799 | -0.19 | 0.607 | -0.891 | inactive
Scp1 | DRSC20803 | 0.93 | -0.304 | -0.242 | inactive
Scp1 | DRSC20806 | 0.493 | 0.374 | 0.393 | inactive
Nmt | DRSC11236 | 0.133 | 0.791 | -0.152 | inactive
Cyp6a13 | DRSC07375 | 0.743 | -0.231 | -0.311 | inactive
CG33514 | DRSC08471 | -4.01 | -0.4 | -1.52 | inactive
CG33514 | DRSC08472 | -1.56 | -2.11 | -2.27 | inactive
CG33514 | DRSC21670 | 0.173 | 0.105 | -0.914 | inactive
IntS1 | DRSC04343 | -7.15 | 0.894 | -4.36 | active
IntS1 | DRSC27942 | -1.55 | 0.729 | -0.129 | inactive
Daao2 | DRSC02135 | -0.12 | -9.55 | -0.121 | inactive
Or67c | DRSC11242 | -0.152 | -5.99 | -0.845 | inactive
RpL27 | DRSC15638 | -0.231 | 0.806 | 1.78 | inactive
RpL27 | DRSC25890 | 0.872 | 3.46 | 3.53 | active
